Five substances from article PMC5147791 (PLoS Neglected Tropical Diseases, 2016) can be followed below.

Data set [1] has as its system CSC[C@H]1O[C@@H](n2cnc3c(N)ncnc32)[C@H](O)[C@@H]1O. Kind of data set: purified protein. The following applies: 100 mM potassium phosphate pH 7.4, room temperature.
In data set [2] the test system is Nc1ncnc2c1ncn2[C@@H]1O[C@H](CO)[C@@H](O)[C@H]1O. Kind of data set: purified protein. The following applies: 100 mM potassium phosphate pH 7.4, room temperature.

By Km is commonly meant the substrate concentration at which the rate is half of its maximum. What is called Vmax is the rate approached at saturating substrate. For orientation: kcat means the maximal rate divided by the concentration of active sites. In general, kcat/Km refers to the turnover number divided by the Michaelis constant. Turning to SmMTAP (Schistosoma mansoni; N87T/S12T), in data set [1], the Km turned out to be 2.12 ± 0.08 µM, the Vmax amounted to 0.0416 µM/min, the kcat was 416 s⁻¹ and the kcat/Km was 1.96e+08 M⁻¹ s⁻¹. Besides, in data set [2], the Km is 3.68 ± 0.14 µM, the Vmax came out at 0.0309 µM/min, the kcat turned out to be 309 s⁻¹ and the kcat/Km was determined as 8.39e+07 M⁻¹ s⁻¹.
Consider SmMTAP (Schistosoma mansoni; S12T), for which, in data set [1], the Michaelis-Menten constant (Km) worked out at 1.22 ± 0.09 µM, the Vmax came to 0.0544 µM/min, the turnover number (kcat) was 145 s⁻¹ and the specificity constant (kcat/Km) was determined as 1.19e+08 M⁻¹ s⁻¹. Also, in data set [2], the Km was found to be 2.1 ± 0.13 µM, the Vmax was determined as 0.0369 µM/min, the kcat was found to be 98.4 s⁻¹ and the kcat/Km came to 4.69e+07 M⁻¹ s⁻¹.
For the substance SmMTAP (Schistosoma mansoni; N87T), in data set [1], the Km was found to be 0.71 ± 0.04 µM, the Vmax is 0.0317 µM/min, the kcat amounted to 84.6 s⁻¹ and the catalytic efficiency (kcat/Km) was 1.19e+08 M⁻¹ s⁻¹. Moreover, in data set [2], the Km turned out to be 3.3 ± 0.21 µM, the Vmax was determined as 0.0235 µM/min, the kcat is 62.6 s⁻¹ and the kcat/Km came to 1.9e+07 M⁻¹ s⁻¹.
SmMTAP (Schistosoma mansoni; Q289L): in data set [1], the Km is 2.49 ± 0.1 µM, the Vmax came out at 0.0725 µM/min, the catalytic constant (kcat) came to 242 s⁻¹ and the kcat/Km came out at 9.7e+07 M⁻¹ s⁻¹. Besides, in data set [2], the Km was found to be 1.81 ± 0.08 µM, the Vmax was found to be 0.0359 µM/min and the catalytic constant (kcat) was 95.8 s⁻¹.
With “SmMTAP (Schistosoma mansoni; N87T/Q289L/S12T)”, in data set [1], the Km came to 3.12 ± 0.12 µM, the Vmax was found to be 0.0254 µM/min, the kcat was determined as 254 s⁻¹ and the kcat/Km is 8.14e+07 M⁻¹ s⁻¹. Moreover, in data set [2], the Km was 7.35 ± 0.36 µM, the Vmax is 0.028 µM/min, the kcat came to 280 s⁻¹ and the kcat/Km is 3.81e+07 M⁻¹ s⁻¹.
